Sequence variants of PSTVd loop 15 after infection

PSTVd intermediate strain, loop 15: wild type GGAAACCGCUACUAC, pool pattern GGAAACCGNNNNNNC; upper and lower strand joined, each 5' to 3', the first 7 letters being the upper strand, closing pairs included.

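Three N. benthamiana plants were inoculated with the whole mutant pool. Progeny were sequenced from the inoculated region (day 5), the margin of the inoculated leaf (day 10) and systemic leaves (day 12).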

Values are reads per thousand in the sample; higher means more abundant, 0 means not found. Each value is the mean of three plants. "Pool" is the share in the plasmid pool used as inoculum, on the same scale. The inoculated region was read from the minus strand, the other sites from the plus strand. With 43,870-66,106 reads a sample, very low values are single reads. Sequences that differ at fixed positions probably stem from PCR or sequencing errors, and defective variants can be carried along by functional ones. Wild type was 33.9 per thousand in the pool and the most common sequence in every sample (inoculated region 202, 200, 159; leaf margin 724, 746, 710; systemic leaves 856, 883, 880).

| # | sequence | pool | inoculated region | leaf margin | systemic leaves |
|---|---|---|---|---|---|
| 1 | GGAAACCGAAACUCC | 0.0960 | 0.0589 | 0 | 0 |
| 2 | GGAAACCGAACCUAC | 0.160 | 0.339 | 0.0747 | 0.0161 |
| 3 | GGAAACCGAACUUCC | 0.256 | 0.117 | 0.0316 | 0 |
| 4 | GGAAACCGAAUAGCC | 0.224 | 0.0821 | 0 | 0 |
| 5 | GGAAACCGAGAGGUC | 0.272 | 0.632 | 0.127 | 0.00537 |
| 6 | GGAAACCGAGCAAUC | 0.240 | 0.0741 | 0.0336 | 0 |
| 7 | GGAAACCGAGUCCAC | 0.224 | 0.0824 | 0.00668 | 0 |
| 8 | GGAAACCGAGUGGGC | 0.224 | 0.222 | 0.00539 | 0 |
| 9 | GGAAACCGAGUUCGC | 0.240 | 0.0622 | 0 | 0 |
| 10 | GGAAACCGAUAUUCC | 0.176 | 0.286 | 0.0998 | 0.0382 |
| 11 | GGAAACCGAUCACUC | 0.176 | 0.0968 | 0.0187 | 0.00537 |
| 12 | GGAAACCGAUGGAGC | 0.272 | 0.0803 | 0.0175 | 0 |
| 13 | GGAAACCGAUUAUGC | 0.176 | 0.0738 | 0.0249 | 0 |
| 14 | GGAAACCGAUUUUAC | 0.256 | 0.361 | 0.111 | 0.105 |
| 15 | GGAAACCGCAACUAC | 0.224 | 0.595 | 0.166 | 0.117 |
| 16 | GGAAACCGCAAUUGC | 0.160 | 0.0920 | 0.0215 | 0 |
| 17 | GGAAACCGCACUUGC | 0.272 | 0.0769 | 0.0269 | 0 |
| 18 | GGAAACCGCAUCCCC | 0.304 | 0.0962 | 0.0134 | 0 |
| 19 | GGAAACCGCCAAUGC | 0.0800 | 0.307 | 0.118 | 0.0796 |
| 20 | GGAAACCGCCAUGCC | 0.208 | 0.0869 | 0.00539 | 0 |
| 21 | GGAAACCGCCCAGAC | 0.272 | 0.0813 | 0.00668 | 0 |
| 22 | GGAAACCGCCCCAUC | 0.208 | 0.102 | 0.0200 | 0 |
| 23 | GGAAACCGCCCUAAC | 0.304 | 0.0909 | 0.0282 | 0 |
| 24 | GGAAACCGCCGUCCC | 0.352 | 0.0794 | 0.00742 | 0.00537 |
| 25 | GGAAACCGCGAGAUC | 0.240 | 0.271 | 0.161 | 0.0999 |
| 26 | GGAAACCGCUACGCC | 0.192 | 0.202 | 0.0880 | 0.0631 |
| 27 | GGAAACCGCUGCUUC | 0.176 | 0.123 | 0.00539 | 0 |
| 28 | GGAAACCGGACUAUC | 0.144 | 0.104 | 0.0275 | 0 |
| 29 | GGAAACCGGAGGCGC | 0.272 | 0.0674 | 0.0187 | 0 |
| 30 | GGAAACCGGAGUCUC | 0.256 | 0.110 | 0 | 0 |
| 31 | GGAAACCGGCCUUCC | 0.240 | 0.141 | 0.00539 | 0 |
| 32 | GGAAACCGGGCUGUC | 0.256 | 0.0803 | 0 | 0 |
| 33 | GGAAACCGGGCUUGC | 0.192 | 0.118 | 0.00668 | 0 |
| 34 | GGAAACCGGGUGCCC | 0.224 | 0.0823 | 0.00668 | 0 |
| 35 | GGAAACCGGUAACAC | 0.224 | 0.292 | 0.146 | 0.0411 |
| 36 | GGAAACCGGUUAUGC | 0.224 | 0.146 | 0.00742 | 0 |
| 37 | GGAAACCGGUUCCAC | 0.240 | 0.0969 | 0.0128 | 0.00537 |
| 38 | GGAAACCGGUUGUCC | 0.144 | 0.0857 | 0 | 0.00537 |
| 39 | GGAAACCGGUUUCCC | 0.224 | 0.0939 | 0 | 0 |
| 40 | GGAAACCGGUUUCGC | 0.192 | 0.0882 | 0.0121 | 0.00537 |
| 41 | GGAAACCGUAAGGUC | 0.240 | 0.291 | 0.0444 | 0.0386 |
| 42 | GGAAACCGUAAUGGC | 0.400 | 0.106 | 0.0328 | 0 |
| 43 | GGAAACCGUACAGGC | 0.144 | 0.0991 | 0.00668 | 0 |
| 44 | GGAAACCGUAGCAAC | 0.256 | 0.0849 | 0 | 0 |
| 45 | GGAAACCGUAGCGCC | 0.240 | 0.0720 | 0 | 0 |
| 46 | GGAAACCGUAGUCUC | 0.272 | 0.138 | 0.597 | 0 |
| 47 | GGAAACCGUAUGCAC | 0.240 | 0.0514 | 0.00539 | 0 |
| 48 | GGAAACCGUCAUACC | 0.320 | 0.107 | 0 | 0 |
| 49 | GGAAACCGUCCCAAC | 0.144 | 0.0857 | 0 | 0 |
| 50 | GGAAACCGUCCGAGC | 0.272 | 0.125 | 0 | 0.0130 |
| 51 | GGAAACCGUCCGCAC | 0.320 | 0.170 | 0.0108 | 0.00537 |
| 52 | GGAAACCGUCGGAGC | 0.288 | 0.0841 | 0.0148 | 0 |
| 53 | GGAAACCGUCUUUGC | 0.256 | 0.0931 | 0 | 0 |
| 54 | GGAAACCGUGACCGC | 0.224 | 0.122 | 0.0121 | 0 |
| 55 | GGAAACCGUGCGGGC | 0.160 | 0.0605 | 0 | 0 |
| 56 | GGAAACCGUGUCGCC | 0.176 | 0.102 | 0.00742 | 0 |
| 57 | GGAAACCGUUAAGUC | 0.224 | 0.368 | 0.120 | 0.0107 |
| 58 | GGAAACCGUUAGAGC | 0.320 | 0.233 | 0.0772 | 0.0767 |

The first 7 entries again:

sequence	pool	inoculated region	leaf margin	systemic leaves
GGAAACCGAAACUCC	0.0960	0.0589	0	0
GGAAACCGAACCUAC	0.160	0.339	0.0747	0.0161
GGAAACCGAACUUCC	0.256	0.117	0.0316	0
GGAAACCGAAUAGCC	0.224	0.0821	0	0
GGAAACCGAGAGGUC	0.272	0.632	0.127	0.00537
GGAAACCGAGCAAUC	0.240	0.0741	0.0336	0
GGAAACCGAGUCCAC	0.224	0.0824	0.00668	0

Source: Wu et al. 2024 (doi:10.1371/journal.ppat.1012142), supplementary data.